One data set deals with CC[C@H](C)[C@H](N)C(=O)O. Nature of the data set: cells, lysate or membranes. Particulars: 37.0 °C.
A further data set deals with CC(C)[C@H](N)C(=O)O. Nature of the data set: cells, lysate or membranes. Particulars: 37.0 °C.

In general, Km refers to the concentration of substrate that gives half-maximal velocity. Broadly, the Vmax is the top rate of the reaction or transport when substrate is in excess.

For the substance BrnQ3 (Bacillus anthracis), the Km came out at 3.6 ± 1.6 µM in the data set with CC[C@H](C)[C@H](N)C(=O)O and 3.3 ± 1.8 µM with CC(C)[C@H](N)C(=O)O. In addition, the Vmax was 0.0055 µmol/min/mg in the data set with CC[C@H](C)[C@H](N)C(=O)O and 0.0041 µmol/min/mg in the data set on CC(C)[C@H](N)C(=O)O.

As to BrnQ4 (Bacillus anthracis), in the data set with CC[C@H](C)[C@H](N)C(=O)O, the Km was 4.9 ± 2.9 µM and the Vmax stood at 0.0085 µmol/min/mg. Further, in the data set with CC(C)[C@H](N)C(=O)O, the Km came out at 3.9 ± 1.6 µM and the Vmax was found to be 0.0067 µmol/min/mg.

BrnQ5 (Bacillus anthracis): in the data set with CC[C@H](C)[C@H](N)C(=O)O, the Km stood at 5.8 ± 3.7 µM and the Vmax came out at 0.0053 µmol/min/mg. In the data set on CC(C)[C@H](N)C(=O)O, the Km stood at 4 ± 2.5 µM and the Vmax turned out to be 0.0026 µmol/min/mg.

Source of the values: publication PMC8787487.
